{
  "source": "BindingDB's records for doi:10.1016/j.bmcl.2018.10.045",
  "about": "(Merck, 2019)",
  "key": {"[1]": {"experiment": "Inhibition of NS5B polymerase E1202G/T1280I/S2197P mutant in HCV genotype 2a infected in human HuH7 replicon cells after 72 hrs in presence of 10% FBS by luciferase-based reporter assay"}, "[2]": {"experiment": "Inhibition of NS5B polymerase C316Y mutant in HCV genotype 1A infected in HuH7 cells after 40 hrs by Taqman probe based RT-PCR analysis"}, "[3]": {"experiment": "Inhibition of NS5B polymerase E1202G/T1280I/S2197P mutant in HCV genotype 1b infected in human HuH7 replicon cells after 72 hrs in presence of 50% human serum by luciferase-based reporter assay"}, "[4]": {"experiment": "Inhibition of NS5B polymerase E1202G/T1280I/S2197P mutant in HCV genotype 1a infected in human HuH7 replicon cells after 72 hrs in presence of 10% FBS by luciferase-based reporter assay"}, "[5]": {"experiment": "Inhibition of NS5B polymerase S365A mutant in HCV genotype 1A infected in HuH7 cells after 40 hrs by Taqman probe based RT-PCR analysis"}, "[6]": {"experiment": "Inhibition of NS5B polymerase E1202G/T1280I/S2197P mutant in HCV genotype 1b infected in human HuH7 replicon cells after 72 hrs in presence of 10% FBS by luciferase-based reporter assay"}},
  "data": [
    {"smiles": "CNC(=O)c1c(-c2ccc(F)cc2)oc2cc(N(C)S(C)(=O)=O)c(-c3ccc4c(n3)-c3cc5c(F)cccc5n3CO4)cc12", "note": "[US9265773, 2]", "values": [
      {"measurement": "EC50", "setting": "[1]", "value": 1.6, "unit": "nM"},
      {"measurement": "EC50", "setting": "[2]", "value": 2.7, "unit": "nM"},
      {"measurement": "EC50", "setting": "[3]", "value": 27, "unit": "nM"},
      {"measurement": "EC50", "setting": "[4]", "value": 2.4, "unit": "nM"},
      {"measurement": "EC50", "setting": "[5]", "value": 1.1, "unit": "nM"},
      {"measurement": "EC50", "setting": "[6]", "value": 2.7, "unit": "nM"}
    ]}
  ]
}
